A mixed list of measured activities; the numbers were collected in NIAID ChemDB.

Common to all: tests in culture; organism: HIV-1; cells: MT-2; endpoint: EC50

Blank or dashed fields: not listed here. ECn: concentration that inhibits the pathogen or its effect by n%. Two numbers with a dash give a range or band. Neighbouring rows are from separate reports.

smiles,conditions,changes,read by,strain,value
CN(CCO)CC(O)Cn1c2ccc(Cl)cc2c2cc(Cl)ccc21,-,-,luciferase / luminescence,NL4-3,2.9 µM
COc1cc([C@@H]2c3cc4c(cc3[C@H](O)[C@H]3COC(=O)[C@@H]23)OCO4)cc(OC)c1O,-,-,XTT,IIIB,>0.01 µg/mL
Nc1ccn([C@H]2CC[C@@H](CO)O2)c(=O)n1,-,-,cytopathic effect / MTT,RF,~0.05 µM
CC(C)(C)NC(=O)[C@@H]1CCCN1C(=O)[C@@H](O)[C@@H]1Cc2ccc(cc2)OCCCOc2cc3ccccc3cc2C(=O)N[C@@H](CC(N)=O)C(=O)N1,-,-,p24,RF,0.076 µM
Cc1cn([C@H]2C=C[C@@H](CO)O2)c(=O)[nH]c1=O,-,-,cytopathic effect / MTT,IIIB,1.8 µM
O=C(/C=C/c1ccc(O)c(O)c1)O[C@@H]1C[C@](OC(=O)/C=C/c2ccc(O)c(O)c2)(C(=O)O)C[C@@H](O)[C@H]1O,-,-,cytopathic effect / neutral red,LAI,2 µg/mL
CC(C)(C)NC(=O)[C@@H]1CN(Cc2cccnc2)CCN1C[C@@H](O)C[C@@H](Cc1ccccc1)C(=O)N[C@H]1c2ccccc2C[C@H]1O,-,-,RT activity,MN,0.007 µM
CCN(CC)CCNc1cc(-c2cccs2)nc2ccccc12,-,-,luciferase / luminescence,NL4-3,6.1 µM
O=C1N(Cc2ccc(O)cc2)[C@H](Cc2ccccc2)[C@H](O)[C@@H](O)[C@@H](Cc2ccccc2)N1Cc1ccc(O)cc1,-,-,-,RF,<0.032 µM
O=C1N(Cc2cccc([N+](=O)[O-])c2)[C@H](Cc2ccccc2)[C@H](O)[C@@H](O)[C@@H](Cc2ccccc2)N1Cc1cccc([N+](=O)[O-])c1,-,-,hybridisation,RF,<0.97 µM
O=C1N(Cc2ccccc2)[C@H](Cc2ccc3c(c2)OCCO3)[C@H](O)[C@@H](O)[C@@H](Cc2ccc3c(c2)OCCO3)N1Cc1ccccc1,-,-,-,RF,<0.112 µM
CCN(c1nc(F)ccc1NC(C)(C)C)C1CCN(C(=O)c2cc3cc(NC(=O)N4CCN(C)CC4)ccc3[nH]2)CC1,-,D437N L441P,p24 / ELISA,IIIB,0.0261 µM
CS(=O)(=O)O[C@H]1C[C@H](n2ccc(=O)[nH]c2=O)O[C@@H]1COP(=O)(OCC(Cl)(Cl)Cl)OCC(Cl)(Cl)Cl,-,-,p24 / ELISA,RF,200 µM
CNc1cccc(CN2C(=O)N(Cc3cccc(N)c3)[C@H](Cc3ccc4c(c3)OCCO4)[C@H](O)[C@@H](O)[C@H]2Cc2ccc3c(c2)OCCO3)c1,-,-,-,RF,<0.027 µM
O=S1(=O)[C@H](Cc2ccccc2)[C@H](OCc2ccccc2)[C@H](O)[C@@H](O)[C@@H](OCc2ccccc2)[C@@H]1Cc1ccccc1,-,-,cytopathic effect / XTT,IIIB,10–50 µM
COc1cc([C@@H]2c3cc4c(cc3[C@H](O)[C@H]3COC(=O)[C@@H]23)OCO4)cc(OC)c1OC,-,-,XTT,IIIB,>0.01 µg/mL
Nc1ccn([C@H]2CC[C@@H](CO)O2)c(=O)n1,-,-,cytopathic effect / MTT,IIIB,~0.32 µg/mL
COC(=O)N[C@H](C(=O)N[C@@H](Cc1ccccc1)[C@@H](O)CN(Cc1ccc(-c2ccccn2)cc1)NC(=O)[C@@H](NC(=O)OC)C(C)(C)C)C(C)(C)C,-,I401T R409K D437N,p24 / ELISA,IIIB,0.0023 µM
Nc1ncnc2c1ncn2CCOCP(=O)(O)O,-,-,ELISA,LAI,1.3 µM
Cc1ccc(-c2ccc3c(c2)C=C(C(=O)Nc2ccc(C[N+](C)(C)C4CCOCC4)cc2)CCC3)cc1,-,-,p24 / ELISA,-,0.0236 µM
Nc1ccn([C@H]2CC[C@@H](CO)O2)c(=O)n1,-,-,p24 / ELISA,HXB2,0.07 µM
COc1ccc(CN2C(=O)N(Cc3ccc(OC)cc3)[C@H](Cc3ccccc3)[C@H](O)[C@@H](O)[C@H]2Cc2ccccc2)cc1,-,-,hybridisation,RF,<7.6 µM
O=C(O)C1(O)C[C@@H](O)C(O)[C@H](O)C1,-,-,cytopathic effect,LAI,>350 µg/mL
Nc1nc(N)c2ncn([C@H]3CO[C@@H](CO)O3)c2n1,-,-,-,-,2.1 µM
CC(C)CN(C[C@@H](O)[C@H](Cc1ccccc1)NC(=O)O[C@H]1CCOC1)S(=O)(=O)c1ccc(N)cc1,-,-,MTT,ROD,0.34 µM
CN1CCN(C2=Nc3cc(O)ccc3Nc3ccccc32)CC1,-,-,cytopathic effect / MTT,IIIB,56 µg/mL
Cc1cn([C@H]2C[C@H](N=[N+]=[N-])[C@@H](CO)O2)c(=O)[nH]c1=O,-,RT-K65R S68G,p24 / ELISA,HXB2-MT 65+68 (RT K65R S68G),0.005 µM
COc1cc(C[C@H]2C(=O)OC[C@@H]2Cc2ccc(OC)c(OC)c2)ccc1O,-,-,XTT,IIIB,0.1 µg/mL
O=S1(=O)[C@H](Cc2ccccc2)[C@H](OCc2cccnc2)[C@H](O)[C@@H](O)[C@@H](OCc2cccnc2)[C@H]1Cc1ccccc1,-,-,cytopathic effect / XTT,IIIB,<2 µM
O=C1N(Cc2ccc(CO)cc2)[C@H](Cc2ccc3c(c2)OCCO3)[C@H](O)[C@@H](O)[C@@H](Cc2ccc3c(c2)OCCO3)N1Cc1ccc(CO)cc1,-,-,-,RF,<0.083 µM
Cc1cn([C@H]2C[C@H](OS(C)(=O)=O)[C@@H](COP(=O)(OCC(Cl)(Cl)Cl)OCC(Cl)(Cl)Cl)O2)c(=O)[nH]c1=O,-,-,p24 / ELISA,RF,45 µM
Cc1cn([C@H]2C=C[C@@H](CO)O2)c(=O)[nH]c1=O,-,-,-,-,1.3 µM
Cc1ccnc2c1NC(=O)c1cccnc1N2C1CC1,-,-,luminescence,NL4-3,0.00032 µM
CN(C)CCCN1c2ccccc2Sc2ccc(Cl)cc21,-,-,cytopathic effect / MTT,IIIB,>5.3 µg/mL
O=C1N(Cc2ccccc2)[C@H](Cc2ccc3c(c2)OCO3)[C@H](O)[C@@H](O)[C@@H](Cc2ccc3c(c2)OCO3)N1Cc1ccccc1,-,-,-,RF,<0.504 µM
O[C@@H]1[C@@H](O)[C@@H](OCc2ccccc2)[C@@H](Cc2ccccc2)S[C@H](Cc2ccccc2)[C@@H]1OCc1ccccc1,-,-,cytopathic effect / XTT,IIIB,2–10 µM
Cc1cn([C@H]2C[C@H](F)[C@@H](CO)O2)c(=S)[nH]c1=O,-,-,syncytia,-,0.5 µM
COc1cc([C@@H]2c3cc4c(cc3C[C@H]3COC(=O)[C@@H]32)OCO4)cc(OC)c1OC,-,-,XTT,IIIB,>0.00065 µg/mL
O=S1[C@H](Cc2ccccc2)[C@H](OCc2ccccc2)[C@H](O)[C@@H](O)[C@@H](OCc2ccccc2)[C@H]1Cc1ccccc1,-,-,cytopathic effect / XTT,IIIB,<2 µM
C[C@H](Cn1cnc2c(N)ncnc21)OCP(=O)(O)O,-,-,p24,SUM9 (WT),2 µM
Cc1cn([C@H]2C[C@H](F)[C@@H](COP(=O)(O)O)O2)c(=S)[nH]c1=O,-,-,syncytia,-,0.5 µM
COC(=O)[C@H](C)NP(=O)(OC[C@H]1C/C1=C\n1cnc2c(N)nc(N)nc21)Oc1ccccc1,-,-,p24,LAI,2.4 µM
O=C1N(Cc2ccc(O)cc2)[C@H](Cc2ccccc2)[C@H](O)[C@@H](O)[C@@H](Cc2ccccc2)N1Cc1ccc(O)cc1,-,-,hybridisation,RF,<0.032 µM
Cc1cn([C@H]2C=C[C@@H](CO)O2)c(=O)[nH]c1=O,-,-,cytopathic effect / MTT,IIIB,1.3 µM
CN1CCN(C2=Nc3cc(Cl)ccc3Nc3ccccc32)CC1,-,-,cytopathic effect / MTT,IIIB,>17 µg/mL
CC(C)CN(C[C@@H](O)[C@H](Cc1ccccc1)NC(=O)[C@H](CC(N)=O)NC(=O)c1ccc2ccccc2n1)C(=O)NC(C)(C)C,-,-,RT activity,MN,0.088 µM
Nc1nc2c(ncn2[C@H]2CO[C@@H](CO)O2)c(=O)[nH]1,-,-,RT activity,IIIB,0.085 µM
C=CCN1C(=O)N(CC=C)[C@H](Cc2ccccc2)[C@H](O)[C@@H](O)[C@H]1Cc1ccccc1,-,-,-,RF,<4.7 µM
Cc1cn([C@H]2C[C@H](N=[N+]=[N-])[C@@H](CO)O2)c(=O)[nH]c1=O,-,-,syncytia,LAV-1,<0.3 µM
CCCCCN1C(=O)N(CCCCC)[C@H](Cc2ccccc2)[C@H](O)[C@@H](O)[C@H]1Cc1ccccc1,-,-,hybridisation,RF,<1.5 µM
O=c1[nH]cnc2c1ncn2[C@H]1CC[C@@H](CO)O1,-,RT-A360T,p24,NL4-3,0.17 µM
O=C(O)/C=C/c1ccc(O)c(O)c1,-,-,cytopathic effect / neutral red,LAI,>250 µg/mL
Nc1ncnc2c1ncn2[C@H]1CC[C@@H](CO)O1,-,-,syncytia,IIIB,0.2 µM
COc1ccc(C[C@@H]2[C@H](O)[C@@H](O)[C@@H](Cc3ccc(OC)c(OC)c3)N(Cc3ccccc3)C(=O)N2Cc2ccccc2)cc1OC,-,-,-,RF,<0.64 µM
CN1CCN(CC/C=C2/c3ccccc3Sc3ccc(S(=O)(=O)N(C)C)cc32)CC1,-,-,cytopathic effect / MTT,IIIB,>5.6 µg/mL
Cc1ccc(CO[C@@H]2[C@H](O)[C@@H](O)[C@@H](OCc3ccc(C)cn3)[C@@H](Cc3ccccc3)S(=O)(=O)[C@@H]2Cc2ccccc2)nc1,-,-,cytopathic effect / XTT,IIIB,2–10 µM
CC(C)(C)NC(=O)[C@@H]1C[C@@H]2CCCC[C@@H]2CN1C[C@@H](O)[C@H](Cc1ccccc1)NC(=O)[C@H](CC(N)=O)NC(=O)c1ccc2ccccc2n1,5 d,-,cytopathic effect / MTT,IIIB,0.003 µM
Cc1cn([C@H]2C[C@H](N=[N+]=[N-])[C@@H](CO)O2)c(=O)[nH]c1=O,14 d,-,antigen,TM,4 µM
CN(C)CCOc1cc2c(c3ccccc13)-c1ccccc1C2=O,-,-,luciferase / luminescence,NL4-3,0.83 µM
Cc1nc2n(c(=O)c1CCN1CCC(c3noc4cc(F)ccc34)CC1)CCCC2,-,-,cytopathic effect / MTT,IIIB,>15 µg/mL
CCO[C@H]1C[C@H](n2cc(C)c(=O)[nH]c2=O)O[C@@H]1COP(=O)(OCC(Cl)(Cl)Cl)OCC(Cl)(Cl)Cl,-,-,p24 / ELISA,RF,30 µM
CCNc1cccnc1N1CCN(C(=O)c2cc3cc(OC)ccc3[nH]2)CC1,-,-,-,LAV,0.39 µM
Cc1ccnc2c1NC(=O)c1cccnc1N2C1CC1,-,-,cytopathic effect / XTT,IIIB,0.1 µM
Cc1cn([C@H]2C[C@H](N=[N+]=[N-])[C@@H](CO)O2)c(=O)[nH]c1=O,-,-,cytopathic effect / XTT,RF,3.95 µM
CC(=O)O[C@H]1C=C([C@H](C)[C@H]2CC(C)=C(C)C(=O)O2)[C@@]2(C)CC[C@H]3[C@@H](C[C@@H](O)[C@@]4(O)CC=CC(=O)[C@]34C)[C@@]12O,-,-,luciferase,NL4-3,32.7 µM
COC(=O)N[C@H](C(=O)N[C@@H](Cc1ccccc1)[C@@H](O)CN(Cc1ccc(-c2ccccn2)cc1)NC(=O)[C@@H](NC(=O)OC)C(C)(C)C)C(C)(C)C,-,-,MTT,LAI,0.0044 µM
Cc1nc(CO[C@@H]2[C@H](O)[C@@H](O)[C@@H](OCc3csc(C)n3)[C@@H](Cc3ccccc3)S(=O)(=O)[C@@H]2Cc2ccccc2)cs1,-,-,cytopathic effect / XTT,IIIB,10–50 µM
Oc1ccc2c(c1)N=C(N1CCNCC1)c1ccccc1N2,-,-,cytopathic effect / MTT,IIIB,85 µg/mL
Nc1ccn([C@H]2CC[C@@H](CO)O2)c(=O)n1,-,-,cytopathic effect / MTT,IIIB (BI-RG-587-RS),0.84 µM
Clc1ccc2c(c1)N=C(N1CCNCC1)c1ccccc1N2,-,-,cytopathic effect / MTT,IIIB,>7 µg/mL
Cc1cn([C@H]2C[C@H](N=[N+]=[N-])[C@@H](CO)O2)c(=O)[nH]c1=O,-,R41K,p24 / ELISA,IIIB,0.153 µM
O=[N+]([O-])c1cccc(CO[C@@H]2[C@H](O)[C@@H](O)[C@@H](OCc3cccc([N+](=O)[O-])c3)[C@@H](Cc3ccccc3)S(=O)[C@@H]2Cc2ccccc2)c1,-,-,cytopathic effect / XTT,IIIB,<2 µM

Again, the opening 7 rows:

smiles | conditions | changes | read by | strain | value
CN(CCO)CC(O)Cn1c2ccc(Cl)cc2c2cc(Cl)ccc21 | - | - | luciferase / luminescence | NL4-3 | 2.9 µM
COc1cc([C@@H]2c3cc4c(cc3[C@H](O)[C@H]3COC(=O)[C@@H]23)OCO4)cc(OC)c1O | - | - | XTT | IIIB | >0.01 µg/mL
Nc1ccn([C@H]2CC[C@@H](CO)O2)c(=O)n1 | - | - | cytopathic effect / MTT | RF | ~0.05 µM
CC(C)(C)NC(=O)[C@@H]1CCCN1C(=O)[C@@H](O)[C@@H]1Cc2ccc(cc2)OCCCOc2cc3ccccc3cc2C(=O)N[C@@H](CC(N)=O)C(=O)N1 | - | - | p24 | RF | 0.076 µM
Cc1cn([C@H]2C=C[C@@H](CO)O2)c(=O)[nH]c1=O | - | - | cytopathic effect / MTT | IIIB | 1.8 µM
O=C(/C=C/c1ccc(O)c(O)c1)O[C@@H]1C[C@](OC(=O)/C=C/c2ccc(O)c(O)c2)(C(=O)O)C[C@@H](O)[C@H]1O | - | - | cytopathic effect / neutral red | LAI | 2 µg/mL
CC(C)(C)NC(=O)[C@@H]1CN(Cc2cccnc2)CCN1C[C@@H](O)C[C@@H](Cc1ccccc1)C(=O)N[C@H]1c2ccccc2C[C@H]1O | - | - | RT activity | MN | 0.007 µM